Earlier results in patent US11913031B2, “Method to reproduce circadian rhythms on a microfluidic chip” (Yissum Research Development Company of the Hebrew …, priority 2017, dated 2024).

System: liver
Settings: Table 4 compound list, toxicological end-point; cited from earlier work

Aflatoxin B1
Toxicity: Apoptosis
